Measured values from several laboratories, pooled; numbers as filed in NIAID ChemDB.

Common to all: whole-cell or culture tests; species: Mycobacterium tuberculosis

Blank or dashed fields: not listed here. MIC bound comes from a single tested concentration. Inhibition is in % at the dose shown (toxicity tests: loss of growth or viability). ECn: concentration that inhibits the pathogen or its effect by n%. MIC50, MIC90 and the like: level of inhibition, or share of isolates inhibited. Conditions beyond the fields shown may differ between rows.

SMILES	read-out	read by	strain	conditions	mutations	cells	tested at	value
O=C1NC(NNC(=O)c2ccncc2)=N/C1=C\c1c(Cl)cccc1Cl	inhibition	resazurin	H37Rv	-	-	-	12.5 µg/mL	17%
COc1ncc(F)c2nc(S(=O)(=O)Nc3ncccc3C(C)=O)nn12	MIC50	visual reading	M22	-	INH RIF resistant	-	-	0.5 µM
CC(=O)Nc1ccc(/C=C2\N=C(c3ccccc3)OC2=O)cc1	inhibition	BACTEC	H37Rv	-	-	-	12.5 µg/mL	16%
CN1N=C(c2ccncc2)OC1c1cccc(Cl)c1	MIC	-	16PI	-	-	-	-	5 µg/mL
c1ccc2c(c1)ncn1c3ccccc3nc21	MIC99	resazurin	H37Rv	-	-	-	-	1.56 µg/mL
COc1ccc2nccc(Nc3ccc(S(=O)(=O)Nc4ccnn4-c4ccccc4)cc3)c2c1	MIC	-	Strain 1 (MDR)	-	-	-	-	4 µg/mL
COc1ccc(/C=C2\N=COC2=O)cc1OC	inhibition	BACTEC	H37Rv	-	-	-	12.5 µg/mL	7%
Cc1nc2ccccc2c2nc3ccccc3n12	MIC99	resazurin	H37Rv	-	INH resistant	-	-	1.56 µg/mL
COC(=O)c1c([N+](=O)[O-])ccc2oc3ccc([N+](=O)[O-])cc3c(=O)c12	MIC	-	H37Rv	-	-	-	-	>32 µg/mL
COc1ncc(F)c2nc(S(=O)(=O)Nc3c(O)cccc3C(C)O)nn12	MIC50	visual reading	M22	-	INH RIF resistant	-	-	0.5 µM
O=[N+]([O-])c1cccc(F)c1CSc1ncn[nH]1	MIC	-	My 331/88	-	-	-	-	>1000 µM
CC(=O)ON=C(C)C(C)=NNc1ccccc1	MIC bound	resazurin	H37Rv	-	-	-	-	>6.25 µg/mL
NNC(=O)c1ccncc1	MIC99	resazurin	H37Rv	-	INH resistant	-	-	0.72 µg/mL
COP(=O)(OC)Oc1c(O)c2cccc3c(O)c(OP(=O)(OC)OC)c4cccc1c4c23	MIC bound	BACTEC	H37Rv	-	-	-	-	>6.25 µg/mL
Cc1nc2ccc(Cl)cc2c2nc3ccccc3n12	MIC99	resazurin	H37Rv	-	-	-	-	>25 µg/mL
N#Cc1cccc2oc3ccccc3c(=O)c12	MIC	-	H37Rv	-	-	-	-	>16 µg/mL
NNC(=O)C(=O)N=Cc1ccc([N+](=O)[O-])o1	MIC bound	BACTEC	H37Rv	-	-	-	-	≤12.5 µg/mL
CCOC(=O)c1ccc2c(c1)nc(-c1ccc(O)cc1O)n2CCN1CCCC1=O	EC50	resazurin / fluorescence	H37Rv	-	-	-	-	>100 µM
O=C1c2ccccc2-c2nc3ccccc3n21	MIC	resazurin	18b	-	-	-	-	4 µg/mL
O=C1NC(NNC(=O)c2ccncc2)=N/C1=C\c1cccc(Cl)c1	MIC	resazurin	H37Rv	-	-	VERO	-	0.8 µg/mL
Oc1cccc(Nc2cc(-c3ccccc3)nc3ccc(Cl)cc23)c1	MIC	-	Strain 2 (MDR)	-	-	-	-	8 µg/mL
CCOc1cccc(C(=O)N(Cc2ccccc2)C2CCS(=O)(=O)C2)c1	MIC	resazurin	Clinical isolate	-	-	-	-	4 µg/mL
FC(F)(F)c1cccc(CSc2ncn[nH]2)c1	MIC	-	My 331/88	-	-	-	-	500 µM
CC(=O)Nc1ccc(S(=O)(=O)c2ccc(Nc3ccnc4ccc(C)cc34)cc2)cc1	MIC	-	Strain 2 (MDR)	-	-	-	-	2 µg/mL
c1ccc2c(c1)oc1cc3c(cc12)nnc1cccn13	MIC bound	resazurin	H37Rv	-	-	-	-	>6.25 µg/mL
Cc1ccc2c(=O)c3ccccc3oc2c1C	MIC	-	H37Rv	-	-	-	-	>8 µg/mL
COC(=O)[C@H](Cc1c[nH]c2ccccc12)NC(=O)[C@H](Cc1c[nH]c2ccccc12)NC(=O)[C@H](Cc1c[nH]c2ccccc12)NC(=O)OC(C)(C)C	inhibition	resazurin	H37Rv	-	-	-	6.25 µg/mL	18%
N#Cc1ccc(CSc2ncn[nH]2)cc1	MIC	-	My 331/88	-	-	-	-	>1000 µM
CCOC(=O)c1ccc2c(c1)nc(-c1ccc(Cl)cc1)n2CCN1CCCOC1	EC90	resazurin / fluorescence	H37Rv	-	-	-	-	87.52 µM
OCN1CCC23c4c5ccc(O)c4OC2C(O)C=CC3C1C5	inhibition	BACTEC	H37Rv	-	-	-	12.5 µg/mL	-12%
CSc1ccc(NC(=O)c2cc3c(s2)CN(C2CC2)C3)cc1	MIC	resazurin	Clinical isolate	-	-	-	-	16 µg/mL
NC(=O)c1cnccn1	EC50	-	TB213	7 d	-	-	-	<800 µg/mL
CCOC(=O)c1ccc2nc(-c3ccc([N+](=O)[O-])cc3)[nH]c2c1	EC50	resazurin / fluorescence	H37Rv	-	-	-	-	>100 µM
CO[C@H]1/C=C/O[C@@]2(C)Oc3c(C)c(O)c4c(=O)c(c5oc6cc(N7CCN(CC(C)C)CC7)cc(=O)c6nc5c4c3=C2O)NC(=O)/C(C)=C\C=C\[C@H](C)[C@H](O)[C@@H](C)[C@@H](O)[C@@H](C)[C@H](OC(C)=O)[C@@H]1C	MIC	-	TN981	-	-	-	-	16 µg/mL
O=C(O)C1=CC(=Nc2cc(Br)c(O)c(Br)c2)C=CC1=O	MIC bound	BACTEC	H37Rv	-	-	-	-	>12.5 µg/mL
Cc1ccc2c(=O)c3ccccc3oc2c1	MIC	-	H37Rv	-	-	-	-	>32 µg/mL
O=C1NC(NNC(=O)c2ccncc2)=N/C1=C\c1ccccc1Cl	inhibition	resazurin	H37Rv	-	-	VERO	12.5 µg/mL	99%
Nc1nc(-n2cc(C(=O)O)c(=O)c3cc(F)c(N4CC(O)C4)c(Cl)c32)c(F)cc1F	MIC90	-	23 strains (rifampicin-resistant)	-	-	-	-	6.25 µg/mL
COS(=O)(=O)O.C[N+]1(CC(O)COc2ccc(Nc3ccc(N)c4c3C(=O)c3ccccc3C4=O)cc2)CCOCC1	MIC bound	BACTEC	H37Rv	-	-	-	-	>12.5 µg/mL
O=C1NC(Nc2cccc(Cl)c2)=N/C1=C\c1ccccc1Cl	MIC	-	H37Rv	-	-	-	-	>12.5 µg/mL
CO[C@H]1/C=C/O[C@@]2(C)Oc3c(C)c(O)c4c(O)c(c(/C=N/N5CCN(C/C=C/c6ccccc6)CC5)c(O)c4c3C2=O)NC(=O)/C(C)=C\C=C\[C@H](C)[C@H](O)[C@@H](C)[C@@H](O)[C@@H](C)[C@H](OC(C)=O)[C@@H]1C	MIC	-	2227 (rifampin-resistant)	-	-	-	-	0.1 µg/mL
FC(F)(F)c1ccc(CSc2ncn[nH]2)cc1	MIC	-	My 331/88	-	-	-	-	500 µM
COc1ccc2nccc3c2c1NC(Cl)=C3	inhibition	BACTEC	H37Rv	-	-	-	12.5 µg/mL	3%
CCOC(=O)c1ccc2c(c1)nc(-c1ccc(Cl)cc1)n2CCN1CCCC1=O	MIC	resazurin / fluorescence	H37Rv	-	-	-	-	>100 µM
CCCc1nc2ccc(Br)cc2c2nc3ccccc3n12	MIC99	resazurin	H37Rv	-	INH resistant	-	-	>25 µg/mL
CCCN1CNC(=S)N(c2ccc(C(=O)OCC)cc2)C1	MIC	resazurin	18b	-	-	-	-	16 µg/mL
NNC(=O)c1ccncc1	MIC	-	MDR-1 (MDR)	-	-	-	-	12.8 µg/mL
CN[C@@H]1[C@@H](O)[C@@H](O[C@@H]2[C@@H](O)[C@H](O[C@H]3O[C@H](CN)CC[C@H]3N)[C@@H](N)C[C@H]2N)OC[C@]1(C)O	MIC	-	H37Rv	-	-	-	-	>32 µg/mL
CCCCCCSC(=S)NC1c2ccccc2Oc2ccccc21	inhibition	resazurin	H37Rv	-	-	-	6.25 µg/mL	74%
COC(=O)C1=NOC2(CC(=O)N(c3ccc(F)cc3)C2=O)C1	MIC	resazurin	Clinical isolate	-	-	-	-	16 µg/mL
CO[C@H]1/C=C/O[C@@]2(C)Oc3c(C)c(O)c4c(O)c(c5c(c4c3C2=O)NC2(CCN(CC(C)C)CC2)N=5)=NC(=O)/C(C)=C\C=C\[C@H](C)[C@H](O)[C@@H](C)[C@@H](O)[C@@H](C)[C@H](OC(C)=O)[C@@H]1C	MIC	-	MDR-3948 (MDR)	-	-	-	-	>1.6 µg/mL
O=C1NC(NNC(=O)c2ccncc2)=N/C1=C\c1ccc(Cl)cc1	MIC	-	Capreomycin-resistant	-	-	-	-	3.13 µg/mL
CCOC(=O)c1ccc2c(c1)nc(-c1ccc(O)cc1)n2CCN1CCCOC1	MIC	resazurin / fluorescence	H37Rv	-	-	-	-	>100 µM
CN1N=C(c2ccncc2)OC1c1cccc(F)c1	MIC	-	H37Rv	-	-	-	-	>20 µg/mL
Cc1ccc2nc(-c3ccccc3)cc(Nc3cccc(O)c3)c2c1	MIC	-	Strain 1 (MDR)	-	-	-	-	4 µg/mL
COc1ccc(C2OC(c3ccncc3)=NN2C)c(OC)c1	MIC	-	6 PI	-	-	-	-	>20 µg/mL
CCCc1nc2ccc(C)cc2c2nc3ccccc3n12	MIC99	resazurin	H37Rv	-	INH resistant	-	-	12.5 µg/mL
Cc1[nH]c(C)c(CN(C)C)c1CN(C)C	MIC bound	BACTEC	H37Rv	-	-	-	-	>12.5 µg/mL
CO[C@H]1/C=C/O[C@@]2(C)Oc3c(C)c(O)c4c(O)c5nc(ncc5c(O)c4c3C2=O)/C(C)=C\C=C\[C@H](C)[C@H](O)[C@@H](C)[C@@H](O)[C@@H](C)[C@H](OC(C)=O)[C@@H]1C	MIC	-	243	-	-	-	-	0.25 µg/mL
COC(=O)c1nnn(CC(=O)Nc2ccc(C)c(F)c2)c1C(=O)OC	MIC	resazurin	Clinical isolate	-	-	-	-	4 µg/mL
CO[C@H]1/C=C/O[C@@]2(C)Oc3c(C)c(O)c4c(=O)c(c5oc6cc(N7CCN(C(C)C)CC7)cc(=O)c6nc5c4c3=C2O)NC(=O)/C(C)=C\C=C\[C@H](C)[C@H](O)[C@@H](C)[C@@H](O)[C@@H](C)[C@H](OC(C)=O)[C@@H]1C	MBC	-	2749 (rifampin-sensitive)	-	-	-	-	0.1 µg/mL
COc1ccc(C2OC(c3ccncc3)=NN2C)cc1OC	MIC	-	H37Rv	-	-	-	-	>20 µg/mL
CCCCN(CCCC)CCc1c[nH]c2ccccc12	MIC	resazurin	MTCS1	-	-	-	-	39.06 µg/mL
O=C(NNc1cc(-c2ccccc2)nc2ccc(Cl)cc12)c1ccncc1	MIC	-	Strain 2 (MDR)	-	-	-	-	2 µg/mL
Cc1cc2c(c3c1c(=O)c1ccccc1n3C)C=CC(C)(C)O2	MIC	-	EMB-R	-	-	-	-	12.5 µg/mL
COC(=O)c1ccc2oc3ccccc3c(=O)c2c1	MIC	-	H37Rv	-	-	-	-	>16 µg/mL
O=C1CC2C(=O)N(Cc3ccccc3)C1C(S(=O)(=O)c1ccccc1)C2S(=O)(=O)c1ccccc1	MIC bound	resazurin	H37Rv	-	-	-	-	>6.25 µg/mL
Fc1ccccc1CSc1ncn[nH]1	MIC	-	My 331/88	-	-	-	-	250 µM
C[C@@H]1CN(c2c(F)c(N)c3c(=O)c(C(=O)O)cn(C4CC4)c3c2F)C[C@H](C)N1	MIC50	-	22 strains (rifampicin-susceptible)	-	-	-	-	0.2 µg/mL
CN[C@@H]1[C@H](O[C@H]2[C@H](O[C@H]3[C@H](O)[C@@H](O)[C@H](N=C(N)N)[C@@H](O)[C@@H]3N=C(N)N)O[C@@H](C)[C@]2(O)C=O)O[C@@H](CO)[C@H](O)[C@H]1O	MIC	-	TN4826 (H)	-	-	-	-	>2 µg/mL
CC(=O)Nc1ccc(S(=O)(=O)c2ccc(Nc3ccnc4ccc(Cl)cc34)cc2)cc1	MIC	-	Strain 1 (MDR)	-	-	-	-	1 µg/mL
O=Nc1c(NO)n(-c2ccccc2)c(=S)n1-c1ccccc1	inhibition	BACTEC	H37Rv	-	-	-	12.5 µg/mL	0%
CC(C)=CCc1cc(/C=C/C(=O)c2ccc(O)c(CC=C(C)C)c2O)ccc1O	MIC	resazurin	MTCS1	-	-	-	-	>39.06 µg/mL
COC1OC(CO)C(O)C2OCCOCCOC3C(OC)OC(CO)C(O)C3OCCOCCOC12	inhibition	BACTEC	H37Rv	-	-	-	12.5 µg/mL	37%
CCOC(=O)c1ccc2c(c1)nc(-c1ccccc1)n2CCN1CCCC1=O	EC90	resazurin / fluorescence	H37Rv	-	-	-	-	63.26 µM
O=C(NCC(c1cccs1)N1CCCCC1)c1cccs1	MIC	resazurin	Clinical isolate	-	-	-	-	16 µg/mL
NC(N)=N/N=C/c1oc(-c2ccc(S(=O)(=O)O)o2)c(-c2ccc(S(=O)(=O)O)o2)c1[N+](=O)[O-]	inhibition	BACTEC	H37Rv	-	-	-	12.5 µg/mL	-15%
Cc1cc(C)c2c(c1)C(O)(N1CCCC(C)C1)C(=O)N2	MIC	resazurin	Clinical isolate	-	-	-	-	16 µg/mL
COc1cc(C2c3cc4c(cc3C3=NN(c5ccccc5)CC3C2C(=O)O)OCO4)cc(OC)c1OC	MIC bound	BACTEC	H37Rv	-	-	-	-	>6.25 µg/mL
CN1N=C(c2ccncc2)OC1c1ccc(F)cc1	MIC	-	16PI	-	-	-	-	>20 µg/mL
CO[C@@]12[C@H](COC(N)=O)C3=C(C(=O)C(C)=C(N)C3=O)N1C[C@H]1[C@@H]2N1C	MIC	-	RMP-R	-	-	-	-	0.8 µg/mL
CCCc1nc2ccc(F)cc2c2nc3ccccc3n12	MIC99	resazurin	H37Rv	-	-	-	-	25 µg/mL